The values below come from publication PMC4113996, “Prediction and characterization of enzymatic activities guided by sequence similarity and genome neighborhood networks” (eLife, 2014).

This series concerns O=C(O)[C@@H]1C[C@@H](O)CN1. Put plainly: purified protein. Particulars: pH 8.0; 25.0 °C.

On to “Oant_0439 (A6WW16) (Brucella anthropi ATCC 49188)”, for which the Michaelis-Menten constant (Km) stood at 1300 ± 200 µM.
